Article PMC4132742, “Inhibition of RNA binding to hepatitis C virus RNA-dependent RNA polymerase: a new mechanism for antiviral intervention” (Nucleic Acids Research, 2014)

Assays:
HCV-NS5BΔ21 RdRp mutants [1] = settings: P495L, M423T, H95Q, M414T, S556A, C316Y, S96A, S282T
HCV-NS5BΔ21 RdRp mutants [2] = target: HCV-NS5BΔ21 RdRp mutants (Hepatitis C virus genotype 1b, UniProt O92972, D2978A); settings: D559 variant

SMILES: O=c1c(O)c(-c2ccc(O)c(O)c2)oc2cc(O)c(O)c(O)c12 [Quercetagetin]
- susceptibility of mutants resistant to other NI and NNI classes (HCV-NS5BΔ21 RdRp mutants [1]): None of these substitutions altered
- reduction of susceptibility relative to wild type (HCV-NS5BΔ21 RdRp mutants [2]): 7 fold
